Source: PMC3461044, “Probing Protein Sequences as Sources for Encrypted Antimicrobial Peptides” (PLoS ONE, 2012)

Columns and labels:
[1] = Far UV circular dichroism of peptides with 2:1 DMPC:DMPG LUVs (MRE, α-helix percentage); details: 0.01 peptide/lipid (mol/mol); for % Helicity 0.01 peptide/(2:1 DMPC/DMPG) (mol/mol) (Greenfield 69) / % Helicity 0.01 peptide/(2:1 DMPC/DMPG) (mol/mol): 2:1 DMPC/DMPG LUVs; for % Helicity 0.01 peptide/(2:1 DMPC/DMPG) (mol/mol) (Greenfield 69): from [q]208 nm, Greenfield et al. 1969; for % Helicity 0.01 peptide/(2:1 DMPC/DMPG) (mol/mol): from [q]222 nm, Chen et al. 1974; for [q]208 nm 0.01 peptide/(2:1 DMPC/DMPG) (mol/mol) (Greenfield 69): Mean Residue Ellipticity at 208 nm; for [q]208 nm 0.01 peptide/(2:1 DMPC/DMPG) (mol/mol) (Greenfield 69) / [q]222 nm 0.01 peptide/(2:1 DMPC/DMPG) (mol/mol) (Chen 74): titrated with 2:1 DMPC/DMPG LUVs; for [q]222 nm 0.01 peptide/(2:1 DMPC/DMPG) (mol/mol) (Chen 74): Mean Residue Ellipticity at 222 nm
[2] = Far UV circular dichroism of peptides with DMPC LUVs (MRE, α-helix percentage); details: for % Helicity 0.01 peptide/DMPC (mol/mol) (Greenfield 69) / % Helicity 0.01 peptide/DMPC (mol/mol) (Chen 74): DMPC LUVs; for % Helicity 0.01 peptide/DMPC (mol/mol) (Greenfield 69): from [q]208 nm, Greenfield et al. 1969; for % Helicity 0.01 peptide/DMPC (mol/mol) (Chen 74): from [q]222 nm, Chen et al. 1974; for [q]208 nm 0.01 peptide/DMPC (mol/mol) (Greenfield 69): Mean Residue Ellipticity at 208 nm; for [q]208 nm 0.01 peptide/DMPC (mol/mol) (Greenfield 69) / [q]222 nm 0.01 peptide/DMPC (mol/mol) (Chen 74): titrated with DMPC LUVs; for [q]222 nm 0.01 peptide/DMPC (mol/mol) (Chen 74): Mean Residue Ellipticity at 222 nm
[3] = Differential scanning calorimetry of the main phase transition of LUVs with peptide; details: pH 7.4, non-two state fit; for Tm broad, fitted (transition temperature): 0.5 mM DMPC LUVs + peptide 4 mol% (20 µM), 20 mM sodium phosphate, 150 mM NaCl, 1°C/min; for Tm broad, fitted (transition temperature) / DH broad, fitted (transition enthalpy) / DHvh broad, fitted (van't Hoff transition enthalpy): broad component; for DH broad, fitted (transition enthalpy) / DHvh broad, fitted (van't Hoff transition enthalpy) / DH sharp, fitted (transition enthalpy) / DHvh sharp, fitted (van't Hoff transition enthalpy) / Tm sharp, fitted (transition temperature): 0.5 mM DMPC LUVs + peptide 4 mol%; for DH sharp, fitted (transition enthalpy) / DHvh sharp, fitted (van't Hoff transition enthalpy) / Tm sharp, fitted (transition temperature): sharp component

Sequence	% Helicity 0.01 peptide/(2:1 DMPC/DMPG) (mol/mol) (Greenfield 69) [1] [%]	% Helicity 0.01 peptide/(2:1 DMPC/DMPG) (mol/mol) [1] [%]	[q]208 nm 0.01 peptide/(2:1 DMPC/DMPG) (mol/mol) (Greenfield 69) [1]	[q]222 nm 0.01 peptide/(2:1 DMPC/DMPG) (mol/mol) (Chen 74) [1]	% Helicity 0.01 peptide/DMPC (mol/mol) (Greenfield 69) [2] [%]	% Helicity 0.01 peptide/DMPC (mol/mol) (Chen 74) [2] [%]	[q]208 nm 0.01 peptide/DMPC (mol/mol) (Greenfield 69) [2]	[q]222 nm 0.01 peptide/DMPC (mol/mol) (Chen 74) [2]	Tm broad, fitted (transition temperature) [3] [°C]	DH broad, fitted (transition enthalpy) [3] [kJ/mol]	DHvh broad, fitted (van't Hoff transition enthalpy) [3] [kJ/mol]	DH sharp, fitted (transition enthalpy) [3] [kJ/mol]	DHvh sharp, fitted (van't Hoff transition enthalpy) [3] [kJ/mol]	Tm sharp, fitted (transition temperature) [3] [°C]
GHRGALKDWVQAAGGAVAAFDFTTKG [Q8RW88(70–95), putative IAP; fragment of Alpha-amylase, Citrus reticulata]	-1.2	15.1	-3645	-5317	1.5	12.5	-4424	-4406	23.49	11.2	1190	8.41	4230	24.2
GLWQIFSSKEEGKDNSQQKSKGDQAKEL [gb|ACU24018.1|(73–101), putative IAP; fragment of Unknown protein, Glycine max]	9.0	6.4	-6610	-2273	11.1	5.4	-7231	-1898	23.49	11.8	1240	9.25	4230	24.2
GLWSTIKQKGKE [DS 01 (1–12), fragment 1–12 of DS 01, Phyllomedusa oreades, reference compound]	18.4	10.7	-9322	-3767	18.8	3.7	-9447	-1312	23.49	10.8	1180	7.53	4440	24.18
IAAAQRITSGAADIAINWAGGLHHAKK [B0CZJ3(104–130), putative IAP; fragment of Histone deacetylase complex, Laccaria bicolor]	34.9	19.6	-14114	-6900	32.4	16.2	-13392	-5729	23.5	11.2	1230	8.49	4310	24.2
KLKKLLAGQKDGLLGQIAAMSDLYTKK [P94692(929–955), putative IAP; fragment of Pyruvate-ferredoxin oxidoreductase, Desulfovibrio africanus]	40.7	34.7	-15801	-12242	8.3	8.2	-6412	-2899	23.5	10.2	1270	7.74	4390	24.19
SLWKNLSRKISGAVKAQPDLHTLLPLPGS [Q9XEY7(120–148), putative IAP; fragment of Trehalase 1 GMTRE1, Glycine max]	49.3	34.5	-18288	-12158	24.2	9	-11017	-3183	23.49	10.8	1280	9.29	3800	24.17
VWTTAMEKSSAANFSMSRNQRRSSLHSL [gb|AAD22970.1|(120–148), putative IAP; fragment of Trehalase 1 GMTRE1, Glycine max]									23.49	11	1230	8.7	4140	24.19
